Legend:
[1] = species: Rattus norvegicus; assay: Selectivity ratio of IC50 for rat alpha7 nACh receptor to IC50 for rat alpha9alpha10 nACh receptor
[2] = biological target: Nicotinic acetylcholine receptor alpha9/alpha10 (Rattus norvegicus) (UniProt P43144+Q9JLB5); assay: Antagonist activity at rat alpha9alpha10 nACh receptor expressed in Xenopus oocyte assessed as inhibition of acetylcholine-induced response at -70 mV holding potential by measuring ratio of IC50 by voltage-clamp based electrophysiological assay relative to GeXIVA; assay type: cell-based; settings: filed as antagonist
[3] = biological target: Neuronal acetylcholine receptor subunit alpha-7 (Rattus norvegicus) (UniProt Q05941); assay: Antagonist activity at rat alpha7 nACh receptor expressed in Xenopus oocyte assessed as inhibition of acetylcholine-induced response at -70 mV holding potential by measuring ratio of IC50 by voltage-clamp based electrophysiological assay relative to GeXIVA; settings: filed as antagonist

Amino acid sequences for entries named in this document (tags omitted). A change or cut given only in a name is not applied to a line headed by its entry.
UniProt P43144: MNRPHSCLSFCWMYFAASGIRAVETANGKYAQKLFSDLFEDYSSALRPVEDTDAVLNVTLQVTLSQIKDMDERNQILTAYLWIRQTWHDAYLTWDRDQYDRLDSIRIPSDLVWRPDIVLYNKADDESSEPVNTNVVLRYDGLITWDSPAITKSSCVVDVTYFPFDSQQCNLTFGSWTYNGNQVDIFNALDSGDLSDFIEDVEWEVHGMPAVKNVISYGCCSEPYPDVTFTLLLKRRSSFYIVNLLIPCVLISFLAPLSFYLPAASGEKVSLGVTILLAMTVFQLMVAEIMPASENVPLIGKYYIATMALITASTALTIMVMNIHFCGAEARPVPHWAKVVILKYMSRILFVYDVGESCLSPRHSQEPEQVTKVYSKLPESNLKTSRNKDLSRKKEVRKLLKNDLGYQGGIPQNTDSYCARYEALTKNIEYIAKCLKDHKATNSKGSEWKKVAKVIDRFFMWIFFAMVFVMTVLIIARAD
UniProt Q9JLB5: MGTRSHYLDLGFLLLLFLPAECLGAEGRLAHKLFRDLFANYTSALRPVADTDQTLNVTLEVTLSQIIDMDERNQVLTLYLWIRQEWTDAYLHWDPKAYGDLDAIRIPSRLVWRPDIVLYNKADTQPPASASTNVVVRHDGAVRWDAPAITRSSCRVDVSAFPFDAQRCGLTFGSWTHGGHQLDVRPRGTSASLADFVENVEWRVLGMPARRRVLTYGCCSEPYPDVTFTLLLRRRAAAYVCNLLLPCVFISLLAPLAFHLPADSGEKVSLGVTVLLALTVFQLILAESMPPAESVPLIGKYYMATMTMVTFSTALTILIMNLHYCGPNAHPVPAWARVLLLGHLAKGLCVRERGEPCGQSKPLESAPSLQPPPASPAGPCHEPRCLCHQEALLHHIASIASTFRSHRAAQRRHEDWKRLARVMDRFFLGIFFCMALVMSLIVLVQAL
UniProt Q05941, whole entry, looked up: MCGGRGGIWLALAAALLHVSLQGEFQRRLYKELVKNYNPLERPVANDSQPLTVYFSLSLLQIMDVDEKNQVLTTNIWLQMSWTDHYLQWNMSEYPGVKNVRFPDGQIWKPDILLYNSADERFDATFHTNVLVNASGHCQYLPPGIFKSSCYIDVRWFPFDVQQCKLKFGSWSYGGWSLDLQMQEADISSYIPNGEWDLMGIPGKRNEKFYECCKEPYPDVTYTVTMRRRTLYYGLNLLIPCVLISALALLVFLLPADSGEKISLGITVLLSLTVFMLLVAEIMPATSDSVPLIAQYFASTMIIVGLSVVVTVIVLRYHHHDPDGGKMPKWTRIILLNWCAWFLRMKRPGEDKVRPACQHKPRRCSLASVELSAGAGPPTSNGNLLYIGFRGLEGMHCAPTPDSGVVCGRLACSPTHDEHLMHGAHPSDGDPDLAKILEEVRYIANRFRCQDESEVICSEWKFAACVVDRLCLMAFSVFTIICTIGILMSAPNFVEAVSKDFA

| Compound | Ratio IC50 [1] | Ratio IC50 [2] | Ratio IC50 [3] |
| --- | --- | --- | --- |
| CC[C@H](C)[C@@H]1NC(=O)[C@H](CCCNC(=N)N)NC(=O)[C@H](CCCNC(=N)N)NC(=O)[C@@H]2CSSC[C@H](NC(=O)[C@H](Cc3ccc(O)cc3)NC(=O)[C@H](CCCNC(=N)N)NC(=O)CNC(=O)[C@H](CO)NC(=O)[C@H](CO)NC(=O)[C@H](CCCNC(=N)N)NC(=O)[C@@H](NC(=O)[C@@H](N)[C@@H](C)O)CSSC[C@@H](C(=O)N[C@H](C(=O)O)C(C)C)NC(=O)[C@H](C)NC(=O)[C@H](CC(=O)O)NC(=O)[C@H]([C@@H](C)O)NC1=O)C(=O)N[C@@H](C)C(=O)N[C@@H](CO)C(=O)N1CCC[C@H]1C(=O)N[C@@H](Cc1ccc(O)cc1)C(=O)N[C@@H](CC(=O)O)C(=O)N[C@@H](CCCNC(=N)N)C(=O)N[C@@H](CCCNC(=N)N)C(=O)N[C@@H](CCCNC(=N)N)C(=O)N[C@@H](CCCNC(=N)N)C(=O)N[C@@H](Cc1ccc(O)cc1)C(=O)N2 | 250 | 2.2 | 3.1 |
| CC[C@H](C)[C@@H]1NC(=O)[C@H](CCCNC(=N)N)NC(=O)[C@H](CCCNC(=N)N)NC(=O)[C@@H]2CSSC[C@H](NC(=O)[C@H](Cc3ccc(O)cc3)NC(=O)[C@H](CCCNC(=N)N)NC(=O)CNC(=O)[C@H](CO)NC(=O)[C@H](CO)NC(=O)[C@H](CCCNC(=N)N)NC(=O)[C@@H](NC(=O)[C@@H](N)[C@@H](C)O)CSSC[C@@H](C(=O)N[C@H](C(=O)O)C(C)C)NC(=O)[C@H](C)NC(=O)[C@H](CC(=O)O)NC(=O)[C@H]([C@@H](C)O)NC1=O)C(=O)N[C@@H](CCCNC(=N)N)C(=O)N[C@@H](CO)C(=O)N1CCC[C@H]1C(=O)N[C@@H](Cc1ccc(O)cc1)C(=O)N[C@@H](CC(=O)O)C(=O)N[C@@H](C)C(=O)N[C@@H](CCCNC(=N)N)C(=O)N[C@@H](CCCNC(=N)N)C(=O)N[C@@H](CCCNC(=N)N)C(=O)N[C@@H](Cc1ccc(O)cc1)C(=O)N2 | 189 | 2.1 | 2.3 |
| CC[C@H](C)[C@@H]1NC(=O)[C@H](CCCNC(=N)N)NC(=O)[C@H](CCCNC(=N)N)NC(=O)[C@@H](NC(=O)[C@H](Cc2ccc(O)cc2)NC(=O)[C@H](CCCNC(=N)N)NC(=O)[C@H](CCCNC(=N)N)NC(=O)[C@H](CCCNC(=N)N)NC(=O)[C@H](C)NC(=O)[C@H](CC(=O)O)NC(=O)[C@H](Cc2ccc(O)cc2)NC(=O)[C@@H]2CCCN2C(=O)[C@H](CO)NC(=O)[C@H](CCCNC(=N)N)NC(=O)[C@@H]2CSSC[C@H](NC(=O)[C@H](N)[C@H](C)O)C(=O)N[C@@H](CCCNC(=N)N)C(=O)N[C@@H](CO)C(=O)N[C@@H](CO)C(=O)NCC(=O)N[C@@H](CCCNC(=N)N)C(=O)N[C@@H](Cc3ccc(O)cc3)C(=O)N2)CSSC[C@@H](C(=O)N[C@H](C(=O)O)C(C)C)NC(=O)[C@H](C)NC(=O)[C@H](CC(=O)O)NC(=O)[C@H]([C@@H](C)O)NC1=O | 140 | 2.7 | 6.9 |
| CC[C@H](C)[C@@H]1NC(=O)[C@H](CCCNC(=N)N)NC(=O)[C@H](CCCNC(=N)N)NC(=O)[C@@H]2CSSC[C@H](NC(=O)[C@H](Cc3ccc(O)cc3)NC(=O)[C@H](CCCNC(=N)N)NC(=O)[C@H](C)NC(=O)[C@H](CO)NC(=O)[C@H](CO)NC(=O)[C@H](CCCNC(=N)N)NC(=O)[C@@H](NC(=O)[C@@H](N)[C@@H](C)O)CSSC[C@@H](C(=O)N[C@H](C(=O)O)C(C)C)NC(=O)[C@H](C)NC(=O)[C@H](CC(=O)O)NC(=O)[C@H]([C@@H](C)O)NC1=O)C(=O)N[C@@H](CCCNC(=N)N)C(=O)N[C@@H](CO)C(=O)N1CCC[C@H]1C(=O)N[C@@H](Cc1ccc(O)cc1)C(=O)N[C@@H](CC(=O)O)C(=O)N[C@@H](CCCNC(=N)N)C(=O)N[C@@H](CCCNC(=N)N)C(=O)N[C@@H](CCCNC(=N)N)C(=O)N[C@@H](CCCNC(=N)N)C(=O)N[C@@H](Cc1ccc(O)cc1)C(=O)N2 | 336 | 1.1 | 2.1 |
| CC[C@H](C)[C@@H]1NC(=O)[C@H](CCCNC(=N)N)NC(=O)[C@H](CCCNC(=N)N)NC(=O)[C@@H](NC(=O)[C@H](Cc2ccc(O)cc2)NC(=O)[C@H](CCCNC(=N)N)NC(=O)[C@H](CCCNC(=N)N)NC(=O)[C@H](CCCNC(=N)N)NC(=O)[C@H](CCCNC(=N)N)NC(=O)[C@H](CC(=O)O)NC(=O)[C@H](Cc2ccc(O)cc2)NC(=O)[C@@H]2CCCN2C(=O)[C@H](CO)NC(=O)[C@H](CCCNC(=N)N)NC(=O)[C@@H]2CSSC[C@H](NC(=O)[C@@H](N)[C@@H](C)O)C(=O)N[C@@H](CCCNC(=N)N)C(=O)N[C@@H](CO)C(=O)N[C@@H](CO)C(=O)N[C@@H](C)C(=O)N[C@@H](CCCNC(=N)N)C(=O)N[C@@H](Cc3ccc(O)cc3)C(=O)N2)CSSC[C@H](C(=O)N[C@H](C(=O)O)C(C)C)NC(=O)[C@H](C)NC(=O)[C@H](CC(=O)O)NC(=O)[C@H]([C@@H](C)O)NC1=O | 142 | 0.4 | 1 |
| CC[C@H](C)[C@@H]1NC(=O)[C@H](CCCNC(=N)N)NC(=O)[C@H](CCCNC(=N)N)NC(=O)[C@@H](NC(=O)[C@H](Cc2ccc(O)cc2)NC(=O)[C@H](CCCNC(=N)N)NC(=O)[C@H](CCCNC(=N)N)NC(=O)[C@H](CCCNC(=N)N)NC(=O)[C@H](CCCNC(=N)N)NC(=O)[C@H](CC(=O)O)NC(=O)[C@H](Cc2ccc(O)cc2)NC(=O)[C@@H]2CCCN2C(=O)[C@H](C)NC(=O)[C@H](CCCNC(=N)N)NC(=O)[C@@H]2CSSC[C@H](NC(=O)[C@@H](N)[C@@H](C)O)C(=O)N[C@@H](CCCNC(=N)N)C(=O)N[C@@H](CO)C(=O)N[C@@H](CO)C(=O)NCC(=O)N[C@@H](CCCNC(=N)N)C(=O)N[C@@H](Cc3ccc(O)cc3)C(=O)N2)CSSC[C@@H](C(=O)N[C@H](C(=O)O)C(C)C)NC(=O)[C@H](C)NC(=O)[C@H](CC(=O)O)NC(=O)[C@H]([C@@H](C)O)NC1=O | 86.5 | 2.2 | 3.5 |
| CC[C@H](C)[C@@H]1NC(=O)[C@H](CCCNC(=N)N)NC(=O)[C@H](CCCNC(=N)N)NC(=O)[C@@H]2CSSC[C@H](NC(=O)[C@H](Cc3ccc(O)cc3)NC(=O)[C@H](CCCNC(=N)N)NC(=O)CNC(=O)[C@H](CO)NC(=O)[C@H](CO)NC(=O)[C@H](CCCNC(=N)N)NC(=O)[C@@H](NC(=O)[C@@H](N)[C@@H](C)O)CSSC[C@@H](C(=O)N[C@@H](C)C(=O)O)NC(=O)[C@H](C)NC(=O)[C@H](CC(=O)O)NC(=O)[C@H]([C@@H](C)O)NC1=O)C(=O)N[C@@H](CCCNC(=N)N)C(=O)N[C@@H](CO)C(=O)N1CCC[C@H]1C(=O)N[C@@H](Cc1ccc(O)cc1)C(=O)N[C@@H](CC(=O)O)C(=O)N[C@@H](CCCNC(=N)N)C(=O)N[C@@H](CCCNC(=N)N)C(=O)N[C@@H](CCCNC(=N)N)C(=O)N[C@@H](CCCNC(=N)N)C(=O)N[C@@H](Cc1ccc(O)cc1)C(=O)N2 | 25.8 | 3.9 | 0.6 |
| CC[C@H](C)[C@@H]1NC(=O)[C@H](CCCNC(=N)N)NC(=O)[C@H](CCCNC(=N)N)NC(=O)[C@@H]2CSSC[C@H](NC(=O)[C@H](Cc3ccc(O)cc3)NC(=O)[C@H](CCCNC(=N)N)NC(=O)CNC(=O)[C@H](CO)NC(=O)[C@H](C)NC(=O)[C@H](CCCNC(=N)N)NC(=O)[C@@H](NC(=O)[C@@H](N)[C@@H](C)O)CSSC[C@@H](C(=O)N[C@H](C(=O)O)C(C)C)NC(=O)[C@H](C)NC(=O)[C@H](CC(=O)O)NC(=O)[C@H]([C@@H](C)O)NC1=O)C(=O)N[C@@H](CCCNC(=N)N)C(=O)N[C@@H](CO)C(=O)N1CCC[C@H]1C(=O)N[C@@H](Cc1ccc(O)cc1)C(=O)N[C@@H](CC(=O)O)C(=O)N[C@@H](CCCNC(=N)N)C(=O)N[C@@H](CCCNC(=N)N)C(=O)N[C@@H](CCCNC(=N)N)C(=O)N[C@@H](CCCNC(=N)N)C(=O)N[C@@H](Cc1ccc(O)cc1)C(=O)N2 | 241 | 1.1 | 1.4 |
| CC[C@H](C)[C@@H]1NC(=O)[C@H](CCCNC(=N)N)NC(=O)[C@H](CCCNC(=N)N)NC(=O)[C@@H](NC(=O)[C@H](Cc2ccc(O)cc2)NC(=O)[C@H](CCCNC(=N)N)NC(=O)[C@H](CCCNC(=N)N)NC(=O)[C@H](CCCNC(=N)N)NC(=O)[C@H](CCCNC(=N)N)NC(=O)[C@H](CC(=O)O)NC(=O)[C@H](Cc2ccc(O)cc2)NC(=O)[C@@H]2CCCN2C(=O)[C@H](CO)NC(=O)[C@H](CCCNC(=N)N)NC(=O)[C@@H]2CSSC[C@H](NC(=O)[C@@H](N)[C@@H](C)O)C(=O)N[C@@H](CCCNC(=N)N)C(=O)N[C@@H](CO)C(=O)N[C@@H](CO)C(=O)NCC(=O)N[C@@H](C)C(=O)N[C@@H](Cc3ccc(O)cc3)C(=O)N2)CSSC[C@@H](C(=O)N[C@H](C(=O)O)C(C)C)NC(=O)[C@H](C)NC(=O)[C@H](CC(=O)O)NC(=O)[C@H]([C@@H](C)O)NC1=O | 105 | 3.7 | 7.1 |
| CC[C@H](C)[C@@H]1NC(=O)[C@H](CCCNC(=N)N)NC(=O)[C@H](CCCNC(=N)N)NC(=O)[C@@H](NC(=O)[C@H](Cc2ccc(O)cc2)NC(=O)[C@H](CCCNC(=N)N)NC(=O)[C@H](C)NC(=O)[C@H](CCCNC(=N)N)NC(=O)[C@H](CCCNC(=N)N)NC(=O)[C@H](CC(=O)O)NC(=O)[C@H](Cc2ccc(O)cc2)NC(=O)[C@@H]2CCCN2C(=O)[C@H](CO)NC(=O)[C@H](CCCNC(=N)N)NC(=O)[C@@H]2CSSC[C@H](NC(=O)[C@@H](N)[C@@H](C)O)C(=O)N[C@@H](CCCNC(=N)N)C(=O)N[C@@H](CO)C(=O)N[C@@H](CO)C(=O)NCC(=O)N[C@@H](CCCNC(=N)N)C(=O)N[C@@H](Cc3ccc(O)cc3)C(=O)N2)CSSC[C@@H](C(=O)N[C@H](C(=O)O)C(C)C)NC(=O)[C@H](C)NC(=O)[C@H](CC(=O)O)NC(=O)[C@H]([C@@H](C)O)NC1=O | 208 | 2.2 | 8.6 |
